# Test results published in publication PMC6070888.
# Tags and fusion partners may be left off the protein sequences shown.
# Biological target: T1, ZafA ZF3-6 (Aspergillus fumigatus) (UniProt Q4WT96)
# T1 sequence (looked up): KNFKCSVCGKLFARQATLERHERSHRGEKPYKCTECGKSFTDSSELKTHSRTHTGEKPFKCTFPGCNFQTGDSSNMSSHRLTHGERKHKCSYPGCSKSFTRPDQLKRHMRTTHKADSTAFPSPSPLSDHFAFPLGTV
# Assay: EMSA
# Settings: two shift steps, weaker than PzafA/PzrfC; EMSA buffer 25 mM Tris-HCl pH 8, 50 mM KCl, 1 mM MgCl2, 12.5% glycerol, 1 mM DTT, 0.2 ug BSA; protein dialyzed in buffer with 10 uM ZnCl2; 30 C; recombinant protein; residues 434-570
sequence,measurement,value
TCGGACATAACGAACGACTCATTGGGGATCGCAGAATACCTGCTTGCCTGCTGGGTTTCTTGCCTTGCCACCAAGGTCCTCAATTGCGGATTCAAAATCCCTGCTACTGCGTTAACTGCGAGCGATCACACGACAGTCAAGCCTCTGACCTCGTTCTTATCACAGGCTTAGAAGTCTTAGTACTCAGCCTAAGTGAATCCTGTAGGGACCTTGAGGATCGTGATTTGTATTTTCCCACAGCTTGATCCAAGGGAGT (double strand) [PzrfB 256 bp EMSA fragment],binding result,binds
